Measured values from several laboratories, pooled; numbers as filed in NIAID ChemDB.

All rows: tests in culture; agent: Candida albicans; endpoint: MIC

An empty or dashed field is not shown. Neighbouring rows are from separate reports.

structure	strain or isolate	result
CC(C)C(=N)CCC[C@H]1CO[C@@](Cn2cccc2)(c2ccc(F)cc2F)C1	B02630	100 µg/mL
Nc1nc(CSCC(N)C(=O)N[C@H]2[C@@H](O)[C@H](n3cnc4c(N)ncnc43)O[C@@H]2C(=O)O)cs1	FP633	1.6 µg/mL
CSc1nc(C(N)=O)cnc1CC(C)C	ATCC 44859	>31.25 µg/mL
C[C@H]1[C@H](O)[C@@H](C)/C=C/C=C/C=C/C=C/C=C/C=C/C=C/[C@H](O[C@@H]2O[C@H](C)[C@@H](O)[C@H](N)[C@@H]2O)C[C@@H]2O[C@](O)(C[C@@H](O)C[C@@H](O)CC[C@H](O)[C@@H](O)C[C@@H](O)CC(=O)O[C@H]1C)C[C@H](O)[C@H]2C(=O)O	ATCC64553	0.125 µg/mL
CCCCSc1nc(C(N)=O)cnc1CCC	ATCC 44859	>31.25 µg/mL
C[C@H](n1nnnc1CCN1CCN(c2ccccc2Cl)CC1)[C@](O)(Cn1cncn1)c1ccc(F)cc1F	-	4 µg/mL
O=[n+]1c(Sc2ccccc2)c(CBr)n([O-])c2ccccc21	Clinical isolate 14	15.6 µg/mL
COc1cc(O)c2c(c1)C(=O)c1c(cc3c(c1O)-c1c(cc(C)c(C(=O)NC(CO)C(=O)O)c1O)[C@H](OC1OC(C)C(O)C(OC4OCC(O)C(O)C4O)C1O)C3O)C2=O	KB 83/005 (azole-resistant)	4 µg/mL
Cc1ccc(C(Cn2ccnc2)OCc2cccc3ccccc23)cc1	5M	>128 µg/mL
CC(C)C(=O)CCC[C@H]1CO[C@@](Cn2ccnc2)(c2ccc(F)cc2F)C1	B02630	25 µg/mL
c1ccc(CO/N=C2\c3ccccc3OCC2n2cncn2)cc1	ATCC 10231	16 µg/mL
C[C@@H](n1cnc2cc(NN)ccc2c1=O)[C@](O)(Cn1cncn1)c1ccc(F)cc1F	76 strains	20 µg/mL
CNc1ccc(C(=O)CC(O)CCC(C)C2OC(=O)CC(O)CC(=O)CC(O)CC(O)CC(O)CC(O)CC3(O)CC(O)C(C(=O)N4CCN(C)CC4)C(CC(O[C@@H]4O[C@H](C)[C@@H](O)[C@H](NC(=O)CN5CCN(CCO)CC5)[C@@H]4O)/C=C/C=C/C=C/C=C\C=C/C=C/C=C/C2C)O3)cc1	200	0.06 µg/mL
CCCC(O)C/C=C\C=C\C(=O)OC[C@H]1O[C@@H](O[C@@H]2[C@H](OC(=O)/C=C/C=C/CC(O)/C(C)=C/C=C/CCC(C)CC)[C@@H](O)[C@]3(OCc4cc(O)cc(O)c43)O[C@@H]2CO)[C@H](O)[C@@H](O)[C@H]1O	MY1208	2 µg/mL
c1ccc(CO/N=C(/Cn2ccnc2)c2ccccc2)cc1	PR1	64 µg/mL
CSc1ccc2c(=O)n([C@H](C)[C@](O)(Cn3cncn3)c3ccc(F)cc3F)cnc2c1	60 strains	≤0.03 µg/mL
C[C@H](n1nnnc1CCN1CCN(c2ccc(Cl)cc2)CC1)[C@](O)(Cn1cncn1)c1ccc(F)cc1F	V-01-191A-261 (resistant)	2 µg/mL
CNc1ccc(C(=O)CC(O)CCC(C)C2OC(=O)CC(O)CC(=O)CC(O)CC(O)CC(O)CC(O)CC3(O)CC(O)C(C(=O)N4CCCCC4)C(CC(O[C@@H]4O[C@H](C)[C@@H](O)[C@H](N)[C@@H]4O)/C=C/C=C/C=C/C=C\C=C/C=C/C=C/C2C)O3)cc1	73	0.06 µg/mL
Clc1ccc2c(c1)OCC(n1cncn1)/C2=N\OCc1ccc(Cl)c(Cl)c1	ATCC 10231	16 µg/mL
CCSc1nc(C(N)=O)cnc1CC(C)C	ATCC 44859	>31.25 µg/mL
Clc1ccc(CO/N=C2/c3ccccc3OCC2n2cncn2)c(Cl)c1	ATCC 10231	64 µg/mL
Nc1ncnc2c1ncn2[C@@H]1O[C@H](C(=O)O)[C@@H](NC(=O)[C@H](N)CSC(c2ccccc2)(c2ccccc2)c2ccccc2)C1O	FP633	>100 µg/mL
C[C@@H](n1cnc2cc(Oc3ccc(Cl)cc3)ccc2c1=O)[C@](O)(Cn1cncn1)c1ccc(F)cc1F	76 strains	80 µg/mL
CCCCSc1nc(C(N)=O)cnc1CC(C)C	ATCC 44859	>31.25 µg/mL
COc1cc(O)c2c(c1)C(=O)c1c(cc3c(c1O)-c1c(cc(C)c(C(=O)NC(C)C(=O)O)c1O)[C@H](OC1OC(C)C(N(C)C)C(OC4OCC(O)C(O)C4O)C1O)[C@H]3O)C2=O	IAM4888	6.3 µg/mL
C[C@H]1[C@H](O)[C@@H](C)/C=C/C=C/C=C/C=C/C=C/C=C/C=C/[C@H](O[C@@H]2O[C@H](C)[C@@H](O)[C@H](N)[C@@H]2O)C[C@@H]2O[C@](O)(C[C@@H](O)C[C@@H](O)CC[C@H](O)[C@@H](O)C[C@@H](O)CC(=O)O[C@H]1C)C[C@H](O)[C@H]2C(=O)O	200	0.48 µg/mL
O=[N+]([O-])c1ccc(N2CCN(CCc3nnn(CC(O)(Cn4cncn4)c4ccc(F)cc4F)n3)CC2)cc1	-	4 µg/mL
O/N=C(\c1ccccc1)c1oc2ccccc2c1Cn1cncn1	NRRL Y-27077	12.5 µg/mL
Nc1ncnc2c1ncn2[C@@H]1O[C@H](C(=O)O)[C@@H](NC(=O)C(N)CSCc2ccccc2)[C@H]1O	FP633	0.1 µg/mL
Cc1ccc2oc(C(=O)c3ccccc3)c(C)c2c1	NRRL Y-27077	50 µg/mL
CCCCCCCCCCCCCCCCCC(=O)NC1CC(O)C(O)NC(=O)C2C(O)C(C)CN2C(=O)C(C(C)O)NC(=O)C(C(O)C(O)c2ccc(O)cc2)NC(=O)C2CC(O)CN2C(=O)C(C(C)O)NC1=O	MY1750	1 µg/mL
CC(C)N=C(N)c1ccc2nc(-c3ccc4c(c3)Cc3cc(-c5nc6ccc(C(N)=NC(C)C)cc6[nH]5)ccc3-4)[nH]c2c1	Isolate 2281	1.56 µg/mL
Nc1ncnc2c1ncn2[C@@H]1O[C@H](C(=O)O)[C@@H](NC(=O)[C@@H](N)Cc2cccnc2)[C@H]1O	FP633	25 µg/mL
CCCCc1ncc(C(N)=S)nc1SCC	ATCC 44859	>31.25 µg/mL
O[C@](Cn1cncn1)(Cn1cnc(/C=C/c2ccc(OCC(F)(F)C(F)F)cc2)n1)c1ccc(F)cc1F	Isolate 08-37	2 µg/mL
Clc1ccc(/C(Cn2ccnc2)=N/OCc2ccccc2)c(Cl)c1	CA2	16 µg/mL
Cc1c(Sc2ccccc2)[n+](=O)c2cc(C(F)(F)F)ccc2n1[O-]	Clinical isolate 21	7.8 µg/mL
Cc1ccc2oc(/C(=N/O)c3ccccc3)c(C)c2c1	NRRL Y-27077	12.5 µg/mL
C[C@@H](SC1COC(/C=C/C=C/c2ccc(C#N)cc2F)OC1)[C@](O)(Cn1cncn1)c1ccc(F)cc1F	CAL-0045	>16 µg/mL
Clc1ccc(/C(Cn2ccnc2)=N\OCc2ccccc2)cc1	PR1	64 µg/mL
CCCCSc1nc(C(N)=S)cnc1CC(C)C	ATCC 44859	>31.25 µg/mL
C[C@@H](n1cnc2cc(NC(=O)C(F)(F)F)c(F)cc2c1=O)[C@](O)(Cn1cncn1)c1ccc(F)cc1F	60 strains	2.5 µg/mL
Cc1c(O)cccc1C(=O)N[C@@H](CSc1ccccc1)[C@H](O)CN1C[C@H]2CCCC[C@H]2C[C@H]1C(=O)NC(C)(C)C	I111A	>64 µg/mL
C[C@H](n1nnnc1CCN1CCN(c2ccccn2)CC1)[C@](O)(Cn1cncn1)c1ccc(F)cc1F	-	8 µg/mL
C[C@@H](n1cnc2cc(/C(N)=N/S(N)(=O)=O)ccc2c1=O)[C@](O)(Cn1cncn1)c1ccc(F)cc1F	76 strains	10 µg/mL
CCCSc1nc(C(N)=O)cnc1CC(C)C	ATCC 44859	>31.25 µg/mL
Clc1ccc2c(c1)OCC(n1cnnc1)/C2=N\OCc1ccccc1	ATCC 10231	64 µg/mL
O/N=C(\c1ccccc1)c1oc2ccccc2c1Cn1ccnc1	Clinical isolate	12.5 µg/mL
COc1ccc2c(Cc3ccc(C(C)(C)C)cc3)c3[n+](cc2c1OC)CCc1cc2c(cc1-3)OCO2	Isolate YH-019	3.13 µg/mL
CC(C)C(=O)CCC[C@H]1CO[C@@](Cn2cccc2)(c2ccc(F)cc2F)C1	IFO. 1385	>100 µg/mL
C[C@H](n1nnnc1CCN1CCN(c2ccc(F)cc2)CC1)[C@](O)(Cn1cncn1)c1ccc(F)cc1F	V-01-191A-261 (resistant)	2 µg/mL
Cc1c(Sc2ccccc2)[n+](=O)c2cc(Cl)ccc2n1[O-]	Clinical isolate 20	15.6 µg/mL
CC(C)C(=N)CCC[C@H]1CO[C@@](Cn2ccnc2)(c2ccc(F)cc2F)C1	IFO. 1385	12.5 µg/mL
CNc1ccc(C(=O)CC(O)CCC(C)C2OC(=O)CC(O)CC(=O)CC(O)CC(O)CC(O)CC(O)CC3(O)CC(O)C(C(=O)O)C(CC(O[C@@H]4O[C@H](C)[C@@H](O)[C@H](N)[C@@H]4O)/C=C/C=C/C=C/C=C\C=C/C=C/C=C/C2C)O3)cc1	73	0.12 µg/mL
c1ccc(-c2ccc(COC(Cn3ccnc3)c3ccccc3)cc2)cc1	3M	128 µg/mL
Cc1c(C(=O)c2ccc(Cl)cc2)oc2ccc(Cl)cc12	NRRL Y-27077	25 µg/mL
Clc1ccc(/C(Cn2ccnc2)=N/OCc2ccccc2)cc1	3M	64 µg/mL
CC(C)(C)c1ccc(COC(Cn2ccnc2)c2ccccc2)cc1	CA7	128 µg/mL
COc1ccc(C[C@H](N)C(=O)N[C@H]2[C@@H](O)[C@H](n3cnc4c(N)ncnc43)O[C@@H]2C(=O)O)cc1	FP633	1.6 µg/mL
Clc1ccc(C(Cn2ccnc2)OCc2cccc3ccccc23)cc1	CDCB385	128 µg/mL
CC(C)C(=N)CCC=C1CO[C@@](Cn2cncn2)(c2ccc(F)cc2F)C1	A.10231	>100 µg/mL
Fc1ccc(/C(Cn2ccnc2)=N/OCc2ccccc2)cc1	Y0109	128 µg/mL
Cc1c(Cl)[n+](=O)c2cc(Cl)ccc2n1[O-]	Clinical isolate 19	7.8 µg/mL
COc1ccccc1N1CCN(CCc2nnn(CC(O)(Cn3cncn3)c3ccc(F)cc3F)n2)CC1	V-01-191A-261 (resistant)	8 µg/mL
Cc1ccc(C(Cn2ccnc2)OC/C=C/c2ccccc2)cc1	PR1	128 µg/mL
Cc1c(S(=O)(=O)c2ccccc2)[n+](=O)c2ccccc2n1[O-]	Clinical isolate 1	31.25 µg/mL

For reference, 4 entries again:

| structure | strain or isolate | result |
|---|---|---|
| Cc1c(Sc2ccccc2)[n+](=O)c2cc(Cl)ccc2n1[O-] | Clinical isolate 20 | 15.6 µg/mL |
| CC(C)C(=O)CCC[C@H]1CO[C@@](Cn2cccc2)(c2ccc(F)cc2F)C1 | IFO. 1385 | >100 µg/mL |
| CNc1ccc(C(=O)CC(O)CCC(C)C2OC(=O)CC(O)CC(=O)CC(O)CC(O)CC(O)CC(O)CC3(O)CC(O)C(C(=O)N4CCCCC4)C(CC(O[C@@H]4O[C@H](C)[C@@H](O)[C@H](N)[C@@H]4O)/C=C/C=C/C=C/C=C\C=C/C=C/C=C/C2C)O3)cc1 | 73 | 0.06 µg/mL |
| COc1ccc(C[C@H](N)C(=O)N[C@H]2[C@@H](O)[C@H](n3cnc4c(N)ncnc43)O[C@@H]2C(=O)O)cc1 | FP633 | 1.6 µg/mL |